Read-outs that look alike come from different tables or passages of the source.

By UniProt entry, the sequences of proteins in these tests, tags left out. Residues count along the entry.
UniProt P15917, 34-809 limits assumed: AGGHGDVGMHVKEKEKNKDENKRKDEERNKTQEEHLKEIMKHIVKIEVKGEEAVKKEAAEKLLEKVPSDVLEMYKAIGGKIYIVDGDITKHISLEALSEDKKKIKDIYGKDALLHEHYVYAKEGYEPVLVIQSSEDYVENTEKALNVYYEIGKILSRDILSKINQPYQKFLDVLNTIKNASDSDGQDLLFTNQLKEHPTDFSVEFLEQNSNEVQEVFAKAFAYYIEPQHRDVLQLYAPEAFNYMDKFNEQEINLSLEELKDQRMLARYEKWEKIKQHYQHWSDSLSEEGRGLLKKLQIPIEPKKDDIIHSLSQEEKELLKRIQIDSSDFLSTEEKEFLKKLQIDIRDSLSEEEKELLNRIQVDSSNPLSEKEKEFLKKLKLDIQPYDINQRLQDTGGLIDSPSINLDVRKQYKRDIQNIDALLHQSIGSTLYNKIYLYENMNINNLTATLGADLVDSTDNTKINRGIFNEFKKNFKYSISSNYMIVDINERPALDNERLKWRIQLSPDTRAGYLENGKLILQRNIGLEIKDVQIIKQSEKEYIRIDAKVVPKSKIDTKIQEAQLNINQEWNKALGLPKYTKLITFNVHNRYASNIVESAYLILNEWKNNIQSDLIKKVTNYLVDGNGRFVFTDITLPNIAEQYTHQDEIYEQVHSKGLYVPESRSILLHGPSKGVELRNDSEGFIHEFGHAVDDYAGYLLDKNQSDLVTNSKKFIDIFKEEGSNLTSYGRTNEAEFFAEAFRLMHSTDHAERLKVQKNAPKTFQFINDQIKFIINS

The target of this assay is anthrax lethal factor (LF) (Bacillus anthracis, UniProt P15917). Kind of assay: in vitro fluorescent assay of inhibition of LF protease activity.
Setting [1] is: read-out: Ki High salt, high salt: 10 mM potassium HEPES pH 7.4, 150 mM KCl, LF about 33 nM, without BSA.
Where [2] appears, read: read-out: Ki Low salt, low salt: 10 mM potassium HEPES pH 7.4, LF about 33 nM, without BSA.

A word on the Ki: it is a measure of affinity in units of concentration, obtained from inhibition or displacement. As for `NCC1O[C@H](O[C@@H]2C(N)C[C@@H](N)C(O)[C@H]2O[C@@H]2O[C@H](CS[C@@H]3O[C@H](CO)[C@H](O)C3O)[C@H](O[C@H]3O[C@@H](CN)[C@@H](O)C(O)C3N)C2O)C(N)[C@@H](O)[C@@H]1O` (some centres unmarked) [Compound XI], the Ki under setting [1] amounted to 81 µM and the Ki under setting [2] amounted to 0.052 µM.
Regarding neomycin B, where the note is “0.1 mg/mL BSA, low salt”, the “change of binding to LF by addition of BSA” value is on record as “not significantly affected”. Further, the “shift of Ki towards higher concentrations on increasing ionic strength” value (from 0 to 150 mM KCl) is “about 1500 fold”. Also, the “apparent Ki value for LF in library screen” value (library of approximately 3000 compounds) is “low nM concentration range”. In addition, the Ki runs as follows: (read-out: Ki High salt, in the presence of BSA (in parentheses), high salt, 150 mM KCl, 0.1 mg/mL BSA) 64 µM; under setting [1], 59 µM; (read-out: Ki Low salt, in the presence of BSA (in parentheses), low salt, 0.1 mg/mL BSA) 0.034 µM; under setting [2], 0.037 µM.
As for `NCC1O[C@H](OC2C(O)[C@H](OC3C(O)[C@H](N)CC(N)[C@H]3O[C@H]3OC(CN)[C@@H](O)C(O)C3N)O[C@@H]2CO[C@@H]2OC(CO)[C@@H](O)C(O)C2O)C(N)C(O)[C@@H]1O` (some centres unmarked) [Compound XII], the Ki reads like this: under setting [1], 125 µM; under setting [2], 0.023 µM.
